From paper PMC6270420, “Antibacterial Activity of Salicylanilide 4-(Trifluoromethyl)benzoates” (Molecules, 2013)
Where two headings read alike, the source gives them in different places.

Legend:
[1] = system: Mycobacterium tuberculosis 331/88 (H37Rv); test: Antimycobacterial MIC micromethod, Šula's medium; assay type: cell-based; conditions: SI = IC50/MIC100, MICs of salicylanilides SAL taken from ref 23
[2] = system: Staphylococcus sp.; test: Selectivity index IC50 (HepG2)/MIC for Staphylococcus sp.; assay type: cell-based; conditions: SI = IC50/MIC100
[3] = system: MDR-TB strains; assay type: cell-based, Mycobacterium tuberculosis; conditions: SI = IC50/MIC100
[4] = system: Mtb. Praha 131 (XDR-TB); assay type: cell-based, Mycobacterium tuberculosis; conditions: SI = IC50/MIC100
[5] = 14 d (second column, as printed)

Structure (SMILES) | SI for Mtb. H37Rv 331/88 ([1]; 14 d) | SI for Mtb. H37Rv 331/88 ([1]; 21 d) | SI for Staphylococcus sp. ([2]; 24 h) | SI for Staphylococcus sp. ([2]; 48 h) | SI for MDR-TB strains ([3]; 14 d) | SI for MDR-TB strains ([3]; 21 d) | SI for XDR-TB strain ([4]; 14 d (first column)) | SI for XDR-TB strain [4, 5]
O=C(Oc1ccc(Cl)cc1C(=O)Nc1ccc(Cl)c(Cl)c1)c1ccc(C(F)(F)F)cc1 [1e] | 3.13 | 3.13 | 6.39 | 3.19 | 1.57–3.13 | 0.78–1.57 | 1.57 | 1.57
O=C(Oc1cc(Cl)ccc1C(=O)Nc1ccc(Cl)c(Cl)c1)c1ccc(C(F)(F)F)cc1 [1f] | 4.46 | 2.23 |  |  | 2.23–4.46 | 2.23 | 4.46 | 2.23
O=C(Oc1ccc(Cl)cc1C(=O)Nc1cccc(Br)c1)c1ccc(C(F)(F)F)cc1 [1g] | 2.63 | 1.32 |  |  | 1.32–2.63 | 1.32 | 2.63 | 1.32
O=C(Oc1cc(Cl)ccc1C(=O)Nc1ccc(Br)cc1)c1ccc(C(F)(F)F)cc1 [1j] | 2.41 | 1.21 | 9.84 | 4.92 |  |  | 4.82 | 2.41
O=C(Oc1ccc(Cl)cc1C(=O)Nc1ccc(C(F)(F)F)cc1)c1ccc(C(F)(F)F)cc1 [1o, 4-chloro-2-[4-(trifluoromethyl)phenylcarbamoyl]phenyl 4-(trifluoromethyl)benzoate] | 1.33 | 1.33 | 0.34 | 0.17 | 1.33–2.66 | 1.33–2.66 | 2.66 | 1.33
O=C(Oc1cc(Cl)ccc1C(=O)Nc1ccc(C(F)(F)F)cc1)c1ccc(C(F)(F)F)cc1 [1p] | 0.89 | 0.89 | 3.61 | 1.81 |  |  |  | 
O=C(Oc1ccc(Br)cc1C(=O)Nc1ccc(C(F)(F)F)cc1)c1ccc(C(F)(F)F)cc1 [1r] | 2.03 | 2.03 |  |  | 2.03–4.06 | 1.02–2.03 | 4.06 | 2.03
O=C(Nc1ccc(Cl)c(Cl)c1)c1cc(Cl)ccc1O [SAL-1] | 0.21 | 0.10 |  |  |  |  |  | 
O=C(Nc1ccc(Cl)c(Cl)c1)c1ccc(Cl)cc1O [SAL-2] | 0.45 | 0.45 |  |  |  |  |  | 
O=C(Nc1ccc(Br)cc1)c1ccc(Cl)cc1O [SAL-4] | 0.5 | 0.5 |  |  |  |  |  | 
O=C(Nc1ccc(C(F)(F)F)cc1)c1cc(Cl)ccc1O [SAL-5, 5-chloro-2-hydroxy-N-[4-(trifluoromethyl)phenyl]benzamide] | 0.18 | 0.18 |  |  |  |  |  | 
O=C(Nc1ccc(C(F)(F)F)cc1)c1ccc(Cl)cc1O [SAL-6] | 0.17 | 0.17 |  |  |  |  |  | 
O=C(Nc1ccc(C(F)(F)F)cc1)c1cc(Br)ccc1O [SAL-7, 5-Bromo-2-hydroxy-N-[4-(trifluoromethyl)phenyl]benzamide] | 1.67 | 1.67 |  |  |  |  |  | 
